Results on 1 molecule are retold here after article PMC11096021 (Immunity, 2024).

This experiment concerns the target A/California/07/2009 H1 trimer (biotinylated, for BLI) (Influenza A virus A/California/07/2009 …, UniProt C3W5X2, strain, biotin on the avi tag (BirA)). The conditions noted are these: both partners purified.

B1: 09–1B12-UCA Fab (Lys-C digest of recombinant IgG, used for BLI) (Fab, V domains shown)
VH: QVQLVQSGAEVKKPGASVKVSCKASGYTFTSYGISWVRQAPGQGLEWMGWISAYNGNTNYAQKLQGRVTMTTDTSTSTAYMELRSLRSDDTAVYYCARGLLQGVVILDSYYYTMDVWGQGTTVTVSS
VL: not shown
Regarding B1, the binding result was “no binding”.
